Source: patent publication US6191155A (priority 1997, dated 2001)

system: Pyricularia oryzae; experiment: Pyricularia test (rice)/Induction of resistance; conditions: application rate 750 g/ha; inoculated 5 days after treatment; evaluation 4 days after inoculation

Question: O=C(SCc1ccccc1Cl)c1snc(Cl)c1Cl was tested. Which Efficacy in % did it give?
Answer: 90%

Question: For COC(=O)c1ccc(OCCOC(=O)c2snc(Cl)c2Cl)cc1 [Example 6], which Efficacy in % is on record?
Answer: 90%

Question: How did the Efficacy in % turn out when CN(C)CCOC(=O)c1snc(Cl)c1Cl was run?
Answer: 90%

Question: With Cc1ccc(C(C)OC(=O)c2snc(Cl)c2Cl)cc1 (stereo not shown) [Example 19] as the compound, how does the Efficacy in % read?
Answer: 90%

Question: For Cc1ccc(CCOC(=O)c2snc(Cl)c2Cl)cc1, which Efficacy in % is on record?
Answer: 100%

Question: O=C(OCCOc1ccc(Cl)cc1)c1snc(Cl)c1Cl [Example 10] was tested. Which Efficacy in % did it give?
Answer: 70%

Question: Which Efficacy in % does the source give for O=C(OCCc1ccc(Cl)cc1)c1snc(Cl)c1Cl [Example 13] here?
Answer: 100%

Question: CSC(=O)c1snc(Cl)c1Cl [Example 15] was tested. Which Efficacy in % did it give?
Answer: 90%

Question: Which Efficacy in % does the source give for CC(C)CSC(=O)c1snc(Cl)c1Cl [Example 17] here?
Answer: 100%

Question: Which Efficacy in % does the source give for O=C(OCCOCc1ccccc1)c1snc(Cl)c1Cl [Example 5] here?
Answer: 80%
